Where two headings read alike, the source gives them in different places.

Assay in all cases: SPR; left panel
Assay [1] concerns the target SARS-CoV-2 mutant trimer South Africa TB918-08.
Assay [2] concerns the target SARS-CoV-2 mutant trimer UK TB918-09.
The target of assay [3] is SARS-CoV-2 mutant trimer South Africa TB918-08. This is another data set of the same source.

B1: 6-63 (Fc fusion)
chain: EVQLVESGGGLVQPGGSLRLSCAASGQTFNMGWFRQAPGKEREFVAAIGSGGSTSYADSVKGRFTISADNSKNTAYLQMNSLKPEDTAVYYCWRLGNDYFDYWGQGTLVTVSS
In general, Kd refers to the constant that tells how readily two partners part at equilibrium. Low values mean higher affinity, high ones lower affinity. B1: the figures for the Kd in assay [1] and in assay [2] were 5000 nM and 1.9 nM, respectively.

B2: 6-3 (Fc fusion)
chain: EVQLVESGGGLVQPGGSLRLSCAASGFTFSPSWMGWFRQAPGKEREFVATINEYGGRNYADSVKGRFTISADNSKNTAYLQMNSLKPEDTAVYYCARVDRDFDYWGQGTLVTVSS
On to B2, for which the Kd in assay [3] was found to be 233 nM.

The values are drawn from patent US20230002478A1, “Methods and compositions relating to covid antibody epitopes” (published 2023).
